We go through 11 compounds from EP1087941B9, “THIOLESTERS AND USES THEREOF” (THE UNITED STATES OF AMERICA, as represented by THE …, priority 1998, dated 1999).

The test system of the data set is HIV-1RF. Nature of the data set: XTT cytoprotection assay (antiviral activity). To be noted: for loss of antiviral activity, fold decrease: BITA form compared with the disulfide form; for Antiviral Activity TI: in vitro therapeutic index (IC50/EC50). Format: cell-based. An excerpt: One exemplary means to determine antiviral activity is with CEM-SS cells and virus (e.g., HIV-1RF) (MOI = 0.01) using the XTT (2,3-bis[2-methoxy- 4-nitro-5-sulfophenyl] -5- [(phenylamino)carbonyl]-2H-tetrazolium hydroxide) cytoprotection assay, as described by Rice (1993) PNAS 90:9721-9724, and Rice (1997) Antimicrob. Agents Chemother. 41:419-426. Briefly, cells are infected with HIV-1RF (or other virus to be tested) in the presence of various dilutions of test compounds (thiolesters and controls). The cultures are incubated for seven days. During this time control cultures without protective compounds (i.e., compounds with anti-viral activity) replicate virus, induce syncytia, and result in about 90% cell death. The cell death is measured by XTT dye reduction. XTT is a soluble tetrazolimn dye that measures mitochondrial energy output, similar to MTT. Positive controls using dextran sulfate (an attachment inhibitor) or 3'-Azido -2'-3'-dideoxythymidine, AZT (a reverse transcriptase inhibitor) are added to each assay. Individual assays are done in duplicate using a sister plate method.
Effective antiviral concentrations providing 50% cytoprotection (EC50), and cellular growth inhibitory concentrations causing 50% cytotoxicity (IC50) are calculated.
A general note: Tetrazolium assays rely on reduction of a dye to a coloured formazan, in cell work by metabolically active cells.

In the case of `NS(=O)(=O)c1ccc(Cn2sc3ccccc3c2=O)cc1` [23 BITA], the “loss of antiviral activity, fold decrease” value is 42 fold.

In the case of `NS(=O)(=O)c1ccc(CNC(=O)c2ccccc2SC(=O)CCCC[n+]2ccccc2)cc1` [Compound 48], the “Antiviral Activity TI” value (Table 6) was found to be 50. For `O=C(Nc1ccc(S(=O)(=O)c2ccc([N+](=O)[O-])cc2)cc1)c1ccccc1SSc1ccccc1C(=O)Nc1ccc(S(=O)(=O)c2ccc([N+](=O)[O-])cc2)cc1` [Compound 31D], the “EC50 increased, fold” value (disulfide form of compound 31 compared with 26) is reported as 2.6 fold.

In the case of `O=C(Nc1ccc(S(=O)(=O)c2ccc(NC(=O)c3ccccc3SSc3ccccc3C(=O)Nc3ccc(S(=O)(=O)c4ccc(NC(=O)c5cccs5)cc4)cc3)cc2)cc1)c1cccs1` [Compound 30D], the “Antiviral Activity TI” value (Table 3) stood at 15.6. As for `NS(=O)(=O)c1ccc(CCn2sc3ccccc3c2=O)cc1` [24 BITA], the “loss of antiviral activity, fold decrease” value is reported as 5 fold. With `O=C(Nc1ccc(S(=O)(=O)c2ccc(NC(=O)c3ccccc3SSc3ccccc3C(=O)Nc3ccc(S(=O)(=O)c4ccc(NC(=O)c5cc([N+](=O)[O-])cc([N+](=O)[O-])c5)cc4)cc3)cc2)cc1)c1cc([N+](=O)[O-])cc([N+](=O)[O-])c1` [Compound 33D], the “Antiviral Activity TI” value (Table 3) was over 1.3. On to `O=C(CCCC[n+]1ccccc1)Sc1ccccc1C(=O)Nc1ccc(S(=O)(=O)c2ccc(NS(=O)(=O)Cc3ccccc3[N+](=O)[O-])cc2)cc1` [Compound 50], for which the “Antiviral Activity TI” value (Table 6) was over 109.

In the case of `CC(=O)Nc1cccc(S(=O)(=O)c2cccc(NC(=O)c3ccccc3SC(=O)CCCC[n+]3ccccc3)c2)c1` [Compound 52], under “Table 6”, the “Antiviral Activity TI” value is given as 43. Turning to `COc1ccc(C(=O)Nc2ccc(S(=O)(=O)c3ccc(NC(=O)c4ccccc4SSc4ccccc4C(=O)Nc4ccc(S(=O)(=O)c5ccc(NC(=O)c6ccc(OC)cc6)cc5)cc4)cc3)cc2)cc1` [Compound 29D], the “Antiviral Activity TI” value (Table 3) came out at 20.9. In the case of `CC(=O)Nc1ccc(S(=O)(=O)c2ccc(NC(=O)c3ccccc3SC(=O)CCCC[n+]3ccccc3)cc2)cc1` [Compound 51], where the note is “Table 6”, the “Antiviral Activity TI” value was determined as 63.

In the case of `O=C(Nc1ccc(S(=O)(=O)c2ccc(NS(=O)(=O)Cc3ccccc3[N+](=O)[O-])cc2)cc1)c1ccccc1SSc1ccccc1C(=O)Nc1ccc(S(=O)(=O)c2ccc(NS(=O)(=O)Cc3ccccc3[N+](=O)[O-])cc2)cc1` [Compound 34D], the “Antiviral Activity TI” value (Table 3) is reported as over 25.7.
